# Potato spindle tuber viroid, loop 15: variant abundance in plants

Data from the supplement of Wu et al. 2024, doi:10.1371/journal.ppat.1012142.

The pool varies loop 15 of the PSTVd intermediate strain in the pattern GGAAACCGNNNNNNC; wild type is GGAAACCGCUACUAC (upper and lower strand joined, each 5' to 3', the first 7 letters being the upper strand, closing pairs included).

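A pool of all variants was put on leaves of three Nicotiana benthamiana plants. Samples came from the inoculated region at 5 days, the leaf margin at 10 and upper systemic leaves at 12.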

Values are reads per thousand in the sample; higher means more abundant, 0 means not found. Each site shows the three plants. "Pool" is the share in the plasmid pool used as inoculum, on the same scale. The inoculated region was read from the minus strand, the other sites from the plus strand.

For GGAAACCGUCGCCGC (pool 0.256) the result was inoculated region 0.0655 / 0.112 / 0.133; leaf margin 0.0162 / 0 / 0.0200; systemic leaves 0 / 0 / 0. GGAAACCGAACGACC (pool 0.272) read inoculated region 0.0491 / 0.0803 / 0.0571; leaf margin 0 / 0 / 0; systemic leaves 0 / 0 / 0. For GGAAACCGGGAUAUC (pool 0.144) the result was inoculated region 0.0983 / 0.0803 / 0.0952; leaf margin 0.0162 / 0.0223 / 0.0200; systemic leaves 0 / 0 / 0. GGAAACCGACUGCUC (pool 0.368) gave inoculated region 0.0491 / 0.177 / 0.133; leaf margin 0 / 0.0445 / 0.0401; systemic leaves 0.0161 / 0 / 0. GGAAACCGUAAGACC (pool 0.192) read inoculated region 0.0983 / 0.161 / 0.0190; leaf margin 0 / 0.0223 / 0; systemic leaves 0 / 0 / 0. GGAAACCGAAUGAUC (pool 0.256) gave inoculated region 0.262 / 0.145 / 0.228; leaf margin 0 / 0 / 0.0200; systemic leaves 0 / 0 / 0. For GGAAACCGCUGGGAC (pool 0.192) the result was inoculated region 0.115 / 0.145 / 0.0762; leaf margin 0 / 0.0223 / 0.0200; systemic leaves 0 / 0 / 0. With GGAAACCGACGCAGC (pool 0.224) the assay gave inoculated region 0.131 / 0.145 / 0.133; leaf margin 0 / 0.0223 / 0; systemic leaves 0 / 0 / 0.

For GGAAACCGUUUAGGC (pool 0.208) the result was inoculated region 0.0983 / 0.0803 / 0.0571; leaf margin 0 / 0 / 0; systemic leaves 0 / 0 / 0. GGAAACCGGAGCUAC (pool 0.272) gave inoculated region 0.0819 / 0.0643 / 0.0762; leaf margin 0 / 0 / 0.0200; systemic leaves 0 / 0 / 0. For GGAAACCGGACGUAC (pool 0.192) the result was inoculated region 0.246 / 0.402 / 0.343; leaf margin 0.194 / 0.0891 / 0.180; systemic leaves 0.0161 / 0.0454 / 0.0228. GGAAACCGUGUUACC (pool 0.224) gave inoculated region 0.0819 / 0.0964 / 0.190; leaf margin 0.0162 / 0.0223 / 0.0200; systemic leaves 0 / 0 / 0. GGAAACCGUGAGAUC (pool 0.176) gave inoculated region 0.344 / 0.353 / 0.362; leaf margin 0.0485 / 0.134 / 0.0601; systemic leaves 0.0644 / 0.0454 / 0.0684. GGAAACCGUAGGAGC (pool 0.320) gave inoculated region 0.164 / 0.0643 / 0.152; leaf margin 0 / 0.0223 / 0.0401; systemic leaves 0 / 0 / 0. For GGAAACCGAUUUAUC (pool 0.240) the result was inoculated region 0.115 / 0.289 / 0.190; leaf margin 0.0323 / 0 / 0.0200; systemic leaves 0 / 0 / 0. GGAAACCGAGCGCGC (pool 0.208) gave inoculated region 0.262 / 0.209 / 0.0952; leaf margin 0 / 0 / 0.0401; systemic leaves 0.0161 / 0 / 0.

With GGAAACCGACAGGCC (pool 0.144) the assay gave inoculated region 0.0491 / 0.0482 / 0.0571; leaf margin 0 / 0.0223 / 0; systemic leaves 0 / 0 / 0. GGAAACCGAACUACC (pool 0.224) read inoculated region 0.0655 / 0.0643 / 0.0952; leaf margin 0.0162 / 0 / 0; systemic leaves 0 / 0 / 0. For GGAAACCGCCACGCC (pool 0.256) the result was inoculated region 0.0983 / 0.0803 / 0.0762; leaf margin 0 / 0.0445 / 0.0200; systemic leaves 0 / 0 / 0. With GGAAACCGGGCGCCC (pool 0.256) the assay gave inoculated region 0.115 / 0.112 / 0.0762; leaf margin 0 / 0 / 0; systemic leaves 0.0161 / 0 / 0. For GGAAACCGACAACGC (pool 0.256) the result was inoculated region 0.0655 / 0.161 / 0.152; leaf margin 0.0162 / 0.0223 / 0.0200; systemic leaves 0 / 0 / 0. GGAAACCGCCACAAC (pool 0.464) read inoculated region 0.328 / 0.369 / 0.514; leaf margin 0.0808 / 0.111 / 0.140; systemic leaves 0.0161 / 0.0605 / 0.205. With GGAAACCGUAUCCUC (pool 0.336) the assay gave inoculated region 0.0655 / 0.129 / 0.152; leaf margin 0 / 0 / 0.0200; systemic leaves 0 / 0 / 0. GGAAACCGUAGUUUC (pool 0.208) read inoculated region 0.197 / 0.177 / 0.305; leaf margin 0.0485 / 0.134 / 0.240; systemic leaves 0.0483 / 0 / 0.

For GGAAACCGUCCGCGC (pool 0.272) the result was inoculated region 0.0491 / 0.112 / 0.0381; leaf margin 0.0323 / 0 / 0.0200; systemic leaves 0 / 0 / 0. GGAAACCGCGUAGCC (pool 0.240) gave inoculated region 0.115 / 0.112 / 0.0571; leaf margin 0 / 0 / 0.0401; systemic leaves 0 / 0 / 0. GGAAACCGAUAGUAC (pool 0.336) read inoculated region 0.229 / 0.369 / 0.400; leaf margin 9.67 / 5.08 / 0.180; systemic leaves 5.65 / 3.95 / 1.91. For GGAAACCGGCGAUGC (pool 0.288) the result was inoculated region 0.0983 / 0.0161 / 0.0952; leaf margin 0.0162 / 0 / 0.0601; systemic leaves 0 / 0 / 0. With GGAAACCGUGUCAGC (pool 0.160) the assay gave inoculated region 0.0328 / 0.112 / 0.0571; leaf margin 0.0162 / 0 / 0; systemic leaves 0 / 0 / 0.

3 of these entries, quoted again:

| sequence | pool | inoculated region | leaf margin | systemic leaves |
|---|---|---|---|---|
| GGAAACCGUCCGCGC | 0.272 | 0.0491 / 0.112 / 0.0381 | 0.0323 / 0 / 0.0200 | 0 / 0 / 0 |
| GGAAACCGUAGGAGC | 0.320 | 0.164 / 0.0643 / 0.152 | 0 / 0.0223 / 0.0401 | 0 / 0 / 0 |
| GGAAACCGUAUCCUC | 0.336 | 0.0655 / 0.129 / 0.152 | 0 / 0 / 0.0200 | 0 / 0 / 0 |

Wild type was 33.9 per thousand in the pool and the most common sequence in every sample (inoculated region 202, 200, 159; leaf margin 724, 746, 710; systemic leaves 856, 883, 880). With 43,870-66,106 reads a sample, very low values are single reads. Sequences that differ at fixed positions probably stem from PCR or sequencing errors, and defective variants can be carried along by functional ones.